Experimental findings from PMC11237654 (Journal of Virology, 2024) are described below.

The series can be described thus: peptide synthesis. Conditions: late stage modification step.

In turn, AAVALMOX↓SAHHYAYR had a step yield of more than 99%.
